# PubChem BioAssay AID504761 | Drosophila RNAi Screening Center | 2011
# Test: 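Insect host genes that dengue virus relies on to spread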 (primary screen)
# Cell system: D.Mel-2 cells from Drosophila
# Reagents: long dsRNA against Drosophila genes
# Challenge: infection with dengue virus type 2; dose and infection time not stated
# Detection: 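Cells stained for dengue envelope protein and imaged; percent of infected cells per well on duplicate plates, ranked by infection, with stained nuclei counted for cell number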
# Reading the numbers: infection score: higher = more virus-infected cells; cell count: higher = more cells in the well
# Active means: 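Very low infection ranking in both replicate wells (chance probability at most 0.065), then a retest showing infection dropped 1.5-fold or more at p below 0.05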
# Meaning of the calls: active = confirmed: knock-down lowers infection; inactive = not picked or not confirmed
# In all, the deposit lists about 22,000 reagents; shown is a random part of those that have a named target and a result. In the full data, 116 (0.52%) were called active. 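Calls depend on retest data that are not deposited; infection was ranked per plate without normalising between plates; the unit of the infection score is not given.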 Raw values are not corrected between plates. A number with no mark means an inactive call. The record does not give: the amount of reagent, the time to read-out.
gene,amplicon,"infection score, replicate 1","infection score, replicate 2","cell count, replicate 1","cell count, replicate 2"
RpL14,DRSC11269,4.65,1.53,2820,2944
slam,DRSC03240,3.69,2.05,6620,6544
CG32301,DRSC08613,1.56,0.77,5829,6625
Nuak,DRSC14414,2.86,9.5,6468,6803
Nuak,DRSC14415,13.8,14.3,6183,5759
Nuak,DRSC14416,2,31.4,7012,5463
CG3513,DRSC00608,2.24,2.34,6423,6202
Glut3,DRSC16681,3.1,6.03,6638,7361
Glut3,DRSC26249,5.79,1.68,6240,6250
CG9951,DRSC11105,2.77,9.07,6678,5677
spirit,DRSC18202,8.37,6.28,6476,6511
spirit,DRSC25748,11.3,6.62,6086,5561
wts,DRSC22975,0.61,1.46,6110,6972
wts,DRSC25766,0.61,4.38,6212,5596
CG4594,DRSC02762,9.96,7.16,6194,6383
dpp,DRSC00118,16.2,13.5,6399,6448
dpp,DRSC00121,1.29,4.51,5757,5767
dpp,DRSC00813,11.7,2.13,6318,6196
dpp,DRSC26853,7.37,1.32,5959,6834
Spc25,DRSC14164,2.61,6,6137,6629
CG16815,DRSC02521,20,19.2,4519,2516
CG16815,DRSC28136,12.4,13.1,6614,5723
AP-2alpha,DRSC00800,2.22,1.65,6582,6183
AP-2alpha,DRSC27715,0.69 (active),1.64,5963,6101
CG1637,DRSC18865,1.1,3.64,6356,5983
CG1637,DRSC19748,28.2,1.99,6240,6469
CG1637,DRSC19749,1.34,2.66,6404,6510
CG1637,DRSC29080,22.5,11.3,5420,6138
CG11811,DRSC09862,1.12,2.51,5962,5374
CG7194,DRSC10784,1.2,2.48,5739,6322
CG15615,DRSC06568,10.2,9.5,6670,6704
CG15615,DRSC29555,16.8,11.4,4436,5424
Nemp,DRSC20206,6.19,2.62,6191,6363
Nemp,DRSC26963,7.18,8.39,6592,5720
Acp26Ab,DRSC01856,2.48,5.44,5936,7255
Acp26Ab,DRSC28398,,,384,407
CG32237,DRSC08312,4.51,0.41,6146,5907
CG32237,DRSC08315,1.31,1.62,6044,6042
CG32237,DRSC29288,23.8,23.4,5307,4009
Gle1,DRSC06485,10.3,11,6047,6761
Gle1,DRSC29960,4.08,7.39,5856,5565
CG12516,DRSC14524,0.41,2.83,6070,6583
CG3719,DRSC18493,6.91,6,7015,6617
CG30377,DRSC06477,13.2,44,1528,3675
CG30377,DRSC25708,3.02,3.74,6087,6012
Cyp6a22,DRSC07382,29.8,20.2,5349,5927
Cyp6a22,DRSC24011,4.22,0.53,6424,6626
Strump,DRSC09872,1.53,4.34,6160,6135
Coprox,DRSC01996,2.88,5.54,6052,6627
Coprox,DRSC28744,5.73,8.63,5464,5391
CG15255,DRSC01869,7.16,2.7,6200,6639
CG15255,DRSC29808,3.61,5.56,6316,5940
Edg84A,DRSC12594,15.3,3.99,5108,5515
CG13028,DRSC09908,2.55,1.99,6636,6281
Nepl9,DRSC02255,7.71,3.73,5722,6413
CG10543,DRSC23102,2.96,4.25,6545,7264
cmet,DRSC03511,,1.09,593,640
CG30431,DRSC04902,13.8,,6599,
CG30431,DRSC04904,7.21,13,6784,6186

6 entries already listed, sorted by “cell count, replicate 1”, lowest first:
gene,amplicon,"infection score, replicate 1","infection score, replicate 2","cell count, replicate 1","cell count, replicate 2"
CG30377,DRSC06477,13.2,44,1528,3675
Cyp6a22,DRSC07382,29.8,20.2,5349,5927
CG12516,DRSC14524,0.41,2.83,6070,6583
CG30377,DRSC25708,3.02,3.74,6087,6012
Cyp6a22,DRSC24011,4.22,0.53,6424,6626
CG3719,DRSC18493,6.91,6,7015,6617
